Measured values taken from article PMC3049263 (Bioorganic & medicinal chemistry, 2010).

System: recombinant HIV-1YU2
Format: cell-based
Conditions: CD4-deficient Cf2Th-CCR5 cells

O=C(NCC1CCN(C2CC2)C1)C(=O)Nc1ccc(Cl)c(F)c1 (centres unmarked) [Compound 46]
Enhancement of viral infectivity (in words): ineffective at enhancing viral infectivity

O=C(Nc1ccc(Cl)c(F)c1)C(=O)NC1CCN(C2CCCCC2)C1 (centres unmarked) [Compound 47]
Enhancement of viral infectivity (in words): ineffective at enhancing viral infectivity
